The values that follow come from doi:10.1101/2023.08.28.555062, “Discovery of 2-amide-3-methylester thiophenes that target SARS-CoV-2 Mac1 and repress coronavirus replication, validating Mac1 as an anti-viral target” (bioRxiv, 2023).

For this assay, the target named is SARS-CoV-2 Mac1 (Severe acute respiratory syndrome coronavirus 2, UniProt P0DTD1). The conditions noted are these: Table 1, commercial analogs, n=3; for IC50 (pIC50 ± SEM): pIC50 ± SEM: given with negative sign; for IC50: read-out: IC50 (pIC50 ± SEM): IC50 (converted).

`COC(=O)c1c(NC(=O)C2C3CCC(C3)C2C(=O)O)sc2c1CCCCC2` (stereo not shown): the “IC50 (pIC50 ± SEM): pIC50 ± SEM” value is −3.89 ± 0.02 and the IC50 (commonly the midpoint of a concentration-inhibition curve) was 130 µM.
`COC(=O)c1c(NC(=O)C2C3CCC(C3)C2C(=O)O)sc2c1CCCCCC2` (stereo not shown): the “IC50 (pIC50 ± SEM): pIC50 ± SEM” value was −5.11 ± 0.02 and the half-inhibitory concentration (IC50) is 7.8 µM.
